## Results of single-concentration screens

The values are deposited in ChEMBL (CHEMBL3988442, “University of Dundee, Small-Polar-MMV Screening Library” (2021)).

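Phenotypic screen: M. tuberculosis growth, cholesterol and DPPC medium, 4 days; the read-out is not stated. Concentration: 500 µM. Direction is inferred from retests: higher values go with more growth inhibition. About 18,000 compounds were tested under these conditions; 5% (about 900) showed 50% or more at least once.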

The filed quantity is “Percent Effect” (%). How 0% and 100% were set is not recorded. Most values in the screen are low, and negative values occur. This is part of a subset picked to be rich in strong results.

With Cc1cc(C(=O)CCC(=O)NC(C)CO)c(C)s1 (centres unmarked) the screen gave 7.838%. NCCCc1nc2c(s1)CCCC2 read 0.6775%. For CC(C)(C)O[C@H]1C[C@H](N)C1 the result was -7.159%. OC1CCCN(Cc2nc3ccccc3o2)C1 (centres unmarked) read -16.02%.

Result for CN1CCN(CCCNC(=O)c2ccco2)CC1 was -11.42%. COc1cc(C(=O)NCCC(C)C)cc(OC)c1OC read -2.821%. Cc1noc(CNC(=O)CCc2ccco2)n1 read 30.02%. Result for CC(C)(C)C(=O)N1CCN(C(=O)[C@@H](N)C(C)(C)C)CC1 was -14.52%.

CCN1CCc2nc(NC(=O)c3ccncc3)sc2C1 read -13.79%. With O=C(Nc1cccc(Cl)c1)N1CCNCC1 the screen gave 12.36%. Result for COC(=O)CSc1nnc(C(F)(F)F)n1C was -9.671%. For CN1C(=O)C[C@H](N)[C@H]1c1cccnc1 the result was 6.59%.

NC(=O)NC(=O)CCN1CCCc2c(Br)cccc2C1 gave 54.08%. With CC(C)COc1cncc(NC(C)CO)n1 (centres unmarked) the screen gave 14.29%. For CCOc1ccccc1NC(=O)CSc1c[nH]nn1 the result was 51.91%. Cc1cc(C(=O)Nc2ccnn2C(C)C)on1 read 4.59%.

COc1ccc(NC(=O)CCOCC(C)C)c(OC)c1 gave 18.6%. CC(C(=O)N1CCNC(=O)C1)S(C)(=O)=O (centres unmarked) gave 3.861%. CC(C)(C)CCC(N)C(N)=O (centres unmarked) read 16.58%. With CC(Nc1ccc(OC(F)F)cn1)c1ccncc1 (centres unmarked) the screen gave 82.32%.

OCC1CCCN(Cc2cccc3c2OCO3)C1 (centres unmarked) read 0.2751%. Result for COCCNC(=O)c1cc2cc(C)ccc2n1C was 61.8%. For CN(Cc1ccc2cc(Cl)ccc2n1)CC(O)CO (centres unmarked) the result was 18.62%. For Cc1cccc(OCC(O)CNC(C)C)c1 (centres unmarked) the result was 13.43%.

With Cc1ccc(NC(=O)CN(C)C)cc1C(=O)NC(C)C the screen gave 4.061%. Cc1ccc(C(=O)NCCCS(C)(=O)=O)c(O)c1 gave 1.672%. For Cc1noc2ncn(CC(=O)NC3CC3)c(=O)c12 the result was -1.625%. With CN(C)CCCNC(=O)c1cccc2cccnc12 the screen gave 7.988%.

For CCn1cc(C(=O)OCCC2CCCO2)cn1 (centres unmarked) the result was 34.75%. Result for CC(C)(C)OC(=O)N1CCN(C2CCC(N)CC2)CC1 (centres unmarked) was 56.48%. NCc1ccc2sccc2c1 read 21.72%. COC(=O)c1cccc(CNCCC(=O)N(C)C)c1 gave 6.394%.

For CCC=C(C)C(=O)NCC(C)N1CCN(CC)CC1 (centres unmarked) the result was 1.858%. COCCNc1ncnc2c1cnn2CCC#N read 1.991%. N#Cc1ccc(C(=O)NCC2CC2)cc1 gave 54.35%. Result for COC1CCN(C(=O)c2cnc3ccccn23)CC1 was 6.371%.

Result for CCNC(=O)Nc1cc(OC)cc(OC)c1 was 37.01%. CCC(SC)C(=O)NCc1nnc(C)n1C1CC1 (centres unmarked) gave -3.661%. CC(C)N(CCOc1ccccc1C#N)CC(N)=O read 30.85%. CCC(O)CN1CCCN(C2CCOCC2)CC1 (centres unmarked) gave 0.1248%.

Result for COCCOc1ccc(C(=O)NCc2ccco2)cc1 was 64.14%. Cc1ccc2[nH]c(C(=O)N3CCN(C)CC3)cc2c1 gave 67.55%. For O=C1NCC(C(=O)NCCCc2ccc(Cl)cc2)N1 (centres unmarked) the result was 36.41%. For NC(=O)C1CCCN(C(=O)c2sccc2Br)C1 (centres unmarked) the result was -26.93%.

Some entries from above, unchanged:

* N#Cc1ccc(C(=O)NCC2CC2)cc1 | 54.35%
* CCN1CCc2nc(NC(=O)c3ccncc3)sc2C1 | -13.79%
* CC(C)COc1cncc(NC(C)CO)n1 (centres unmarked) | 14.29%
* Cc1cc(C(=O)Nc2ccnn2C(C)C)on1 | 4.59%